For data set [1], the target named is influenza polymerase PAC-PB1N interaction (His-tagged PA239-716 / GST-tagged PB1 1-25) (Influenza A virus, UniProt P03433). The data set can be described thus: biochemical. Type of data set: binding.
Data set [2] deals with influenza A virus A/WSN/33 (H1N1). The data set is described as follows: in vitro. To be noted: dog, MDCK.
For data set [3], the system named is influenza A virus A/California/07/2009 (H1N1). The data set is described as follows: in vitro. Conditions: dog, MDCK.
Data set [4] has as its system influenza A virus A/Denmark/524/2009 (H1N1). The data set can be described thus: in vitro. To be noted: dog, MDCK.
Data set [5] concerns influenza A virus A/Texas/04/2009 (H1N1). The data set is described as follows: in vitro. To be noted: dog, MDCK.
For data set [6], the system named is influenza A virus A/Washington/29/2009 (H1N1). The data set can be described thus: in vitro. To be noted: dog, MDCK.
For data set [7], the system named is influenza A virus A/Switzerland/9715293/2013 (H3N2). The data set can be described thus: in vitro. Conditions: dog, MDCK.
Data set [8] has as its system influenza A virus A/Denmark/528/2009 (H1N1). The data set can be described thus: in vitro. To be noted: dog, MDCK.

Where “and” joins values, the source holds several entries; their conditions need not be identical. Equal values may be shown once. Read-outs that look alike come from different tables or passages of the source.

This passage reports IC50 and selectivity ratio results from article PMC5854701 (Scientific Reports, 2018).

On to `Oc1nc2ccccc2n1C1CCN(C(CCc2ccccc2)c2nnnn2-c2ccc3c(c2)OCCO3)CC1` (centres unmarked) [Compound 5, 1‐(1‐{1‐[1‐(2,3‐dihydro‐1,4‐benzodioxin‐6‐yl)‐1,2,3,4‐tetrazol‐5‐yl]‐3‐phenylpropyl}piperidin‐4‐ yl)‐3 H‐1,3‐benzodiazol‐2‐one], for which, in data set [1] (PAC-PB1N ELISA IC50), the IC50 (as a rule, the concentration that gives 50% inhibition) came to 4.3 ± 0.1 µM. In addition, the selectivity ratio turned out to be 14.5 in data set [2]; 3.9 in data set [3]; 9.7 in data set [4]; 5 in data set [5]; 10.9 in data set [6].
As for `O=c1[nH]c2ccccc2n1C1CCN(C(c2ccc(-c3ccccc3)cc2)c2nnnn2-c2ccc3c(c2)OCCO3)CC1` (centres unmarked) [Compound 9 f, 1‐[1‐({[1,1′‐biphenyl]‐4‐yl}[1‐(2,3‐dihydro‐1,4‐benzodioxin‐6‐yl)‐1 H‐1,2,3,4‐tetrazol‐5‐yl]methyl)piperidin‐4‐yl]‐2,3‐dihydro‐1 H‐1,3‐benzodiazol‐2‐one], in data set [1] (PAC-PB1N ELISA IC50), the 50% inhibitory concentration (IC50) is more than 30 µM.
As for `Oc1nc2ccccc2n1C1CCN(C(c2cccs2)c2nnnn2-c2ccc3c(c2)OCCO3)CC1` (centres unmarked) [Compound 9 m, 1‐(1‐{[1‐(2,3‐dihydro‐1,4‐benzodioxin‐6‐yl)‐1 H‐1,2,3,4‐tetrazol‐5‐yl](thiophen‐2‐yl)methyl}piperidin‐4‐yl)‐2,3‐dihydro‐1 H‐1,3‐benzodiazol‐2‐one], half-maximal inhibition in data set [1] (PAC-PB1N ELISA IC50) (IC50) required 15.1 ± 1.2 µM.
As to `c1ccc(CCC(c2nnnn2-c2ccc3c(c2)OCCO3)N2CCC(c3c[nH]c4ccccc34)CC2)cc1` (centres unmarked) [Compound 9c, 3‐(1‐{1‐[1‐(2,3‐dihydro‐1,4‐benzodioxin‐6‐yl)‐1 H‐1,2,3,4‐tetrazol‐5‐yl]‐3‐phenylpropyl}piperidin‐4‐yl)‐1 H‐indole], in data set [1] (PAC-PB1N ELISA IC50), the IC50 is > 26.9 µM and 26.9 µM.
For the molecule `O=c1[nH]c2ccccc2n1C1CCN(C(c2ccccc2)c2nnnn2-c2ccc3c(c2)OCCO3)CC1` (centres unmarked) [Compound 9i, 1-(1-{[1-(2,3-dihydro‐1,4‐benzodioxin-6‐yl)‐1 H‐1,2,3,4‐tetrazol‐5‐yl](phenyl)methyl}piperidin‐4‐yl)‐2,3‐dihydro‐1 H‐1,3‐benzodiazol‐2‐one], in data set [1] (PAC-PB1N ELISA IC50), the IC50 stood at 13.6 ± 0.9 µM.
In data set [1] (PAC-PB1N ELISA IC50), `COc1cccc(C(c2nnnn2-c2ccc3c(c2)OCCO3)N2CCC(n3c(O)nc4ccccc43)CC2)c1OC` (centres unmarked) [Compound 9k, 1‐(1‐{[1‐(2,3‐dihydro‐1,4‐benzodioxin‐6‐yl)‐1 H‐1,2,3,4‐tetrazol‐5‐yl](2,3‐dimethoxyphenyl)methyl}piperidin‐4‐yl)‐2,3‐dihydro‐1 H‐1,3‐benzodiazol‐2‐one] had an IC50 of 7 ± 0.6 µM.
On to `O=c1[nH]c2ccccc2n1C1CCN(C(c2ccsc2)c2nnnn2-c2ccc3c(c2)OCCO3)CC1` (centres unmarked) [Compound 9o, 1‐(1‐{[1‐(2,3‐dihydro‐1,4‐benzodioxin‐6‐yl)‐1 H‐1,2,3,4‐tetrazol‐5‐yl](thiophen‐3‐yl)methyl}piperidin‐4‐yl)‐2,3‐dihydro‐1 H‐1,3‐benzodiazol‐2‐one], for which, in data set [1] (PAC-PB1N ELISA IC50), the IC50 was 9.9 ± 0.7 µM.
`C[C@@H](c1ccccc1)n1nnnc1[C@H](c1ccsc1)N1CCC(n2c(=O)[nH]c3ccccc32)CC1` [Compound 12a, 1‐{1‐[(S)‐{1‐[(1 S)‐1‐phenylethyl]‐1 H‐1,2,3,4‐tetrazol‐5‐yl}(thiophen‐3‐yl)methyl]piperidin‐4‐yl}‐2,3‐dihydro‐1 H‐1,3‐benzodiazol‐2‐one] returned an IC50 in data set [1] (PAC-PB1N ELISA IC50) of 7.6 ± 1.4 µM. Also, the selectivity ratio in data set [2] was more than 214; in data set [3], more than 115; in data set [4] it was more than 188; in data set [5], more than 136; in data set [6], more than 167; in data set [7], more than 107. Also, the selectivity ratio in data set [8] is more than 167.
Take `C[C@@H](c1ccccc1)n1nnnc1[C@@H](c1ccsc1)N1CCC(n2c(=O)[nH]c3ccccc32)CC1` [Compound 12b, 1‐{1‐[(R)‐{1‐[(1 S)‐1‐phenylethyl]‐1 H‐1,2,3,4‐tetrazol‐5‐yl}(thiophen‐3‐yl)methyl]piperidin‐4‐yl}‐2,3‐dihydro‐1 H‐1,3‐benzodiazol‐2‐one]: in data set [1] (PAC-PB1N ELISA IC50), the IC50 was > 26.9 µM and 37 µM.
The same measure, in the same setting: the same measure for `Cc1onc(-c2ccccc2)c1C(=O)N1CCN(c2ccc([N+](=O)[O-])cc2Cl)CC1` [Nucleozin, reference compound]: more than 30 µM.
With “Oseltamivir carboxylate [reference compound]”, the IC50 in data set [1] (read-out: PAC-PB1N ELISA IC50) was more than 30 µM.
